Measured values from several laboratories, pooled; numbers as filed in NIAID ChemDB.

Common to all: whole-cell or culture tests; organism: Hepatitis C virus; read-out: EC50

ECn: concentration that inhibits the pathogen or its effect by n%.

smiles,method,strain,cells,result
CCOc1nc(N)nc2ccc(-c3ccc(Nc4nncs4)cc3)nc12,replicon,-,Huh7,0.3–1 µM
O=C(Cc1cccc(-n2cccc2)c1)N/N=C/c1ccccc1OS(=O)(=O)c1ccc(C(F)(F)F)cc1,replicon,-,Huh7,>50 µM
COC(=O)c1ccc(Nc2s[nH]c(=O)c2C#N)cc1,replicon,-,Huh7,10–50 µM
Cc1cnn(C)c1-c1nc(O[C@@H]2C[C@@H](C(=O)N[C@@H](CC3CCC3)C(=O)C(=O)NC3CC3)N(C(=O)[C@@H](NC(=O)NCC3CC3)C(C)(C)C)C2)c2sccc2n1,replicon,1b,-,<1 µM
CNC(=O)c1c(-c2ccc(F)cc2)oc2cc(N(CCO)S(C)(=O)=O)c(C3CC3)cc12,luciferase,Con1 genotype 1b,Huh7.5,0.0169 µM
C=CC1CC1(NC(=O)[C@@H]1C[C@@H](Oc2cc(-c3ccccc3)nc3cc(OC)ccc23)CN1C(=O)[C@H](C)N1CCCCC1)C(=O)O,replicon,1b,-,<100 µM
C=C[C@@H]1C[C@]1(NC(=O)[C@@H]1C[C@@H](Oc2cc(-c3ccccc3)nc3cc(OC)ccc23)CN1C(=O)[C@@H](NC(=O)OCC1CC1)C(C)(C)C)C(=O)NS(=O)(=O)C1CC1,replicon,1b,Huh7,<0.05 µM
CC(C)CC[C@@]1(C)C(=O)C(C2=NS(=O)(=O)c3cc(NS(C)(=O)=O)ccc3N2)=C(O)c2ccccc21,luciferase,4a,Huh7,0.3882 µM
NS(=O)(=O)c1ccc(CNc2nc(NCC(F)(F)F)c3nc(-c4ccc(NC(=O)[C@H]5CCNC5)c(F)c4)ccc3n2)cc1,replicon,-,-,<0.1 µM
C=C[C@@H]1C[C@]1(NC(=O)[C@@H]1C[C@@H](Oc2cc(-c3ccccc3)nc3cc(OC)ccc23)CN1C(=O)[C@@H](NC(=O)OC(C)(C)C)C(C)(C)C)C(=O)NS(=O)(=O)c1cccc(C#N)c1,replicon,1b,Huh7,<0.5 µM
C=CC1CC1(NC(=O)[C@@H]1C[C@@H](Oc2cc(-c3ccccc3)nc3cc(OC)ccc23)CN1C(=O)[C@H](C(C)C)N1CCCCC1)C(=O)O,replicon,1b,-,>100 µM
N#Cc1c(Nc2ccc(I)cc2Cl)s[nH]c1=O,replicon,-,Huh7,1–10 µM
C[C@@H](NC(=O)OCc1ccccc1)C(=O)Nc1ccc(C2SC(=Nc3cccc(F)c3)N(Cc3cccnc3)C2=O)cc1,replicon,-,Huh7,<0.1 µM
CC(C)Oc1nc(N)nc2ccc(-c3ccc(C(=O)NC4CC4)c(Cl)c3)nc12,replicon,-,Huh7,>1 µM
COc1cccc(CC(=O)N/N=C/c2ccccc2CS(=O)(=O)c2ccc(C)cc2)c1,replicon,-,Huh7,<5 µM
N#Cc1c(Nc2ccc(I)c(Cl)c2)s[nH]c1=O,replicon,-,Huh7,<1 µM
O=C(Cc1cccc(C(F)(F)F)c1)N/N=C/c1ccccc1OS(=O)(=O)c1ccc(C(F)(F)F)cc1,replicon,-,Huh7,<5 µM
Cc1cnc(N2C(=O)C(c3ccc(NC(=O)[C@@H]4CCCN4C(=O)Cc4ccccc4)cc3)SC2=Nc2ccc(N3CCOCC3)cc2)cn1,replicon,-,Huh7,>5 µM
CN(CCS(C)(=O)=O)c1nc(NCc2ccc(F)cc2)nc2ccc(-c3cccc(N(CCO)S(C)(=O)=O)c3)nc12,replicon,-,-,<0.1 µM
C=CC[C@](C)(NC(=O)[C@H]1C[C@@H](Oc2nccc3c4c(c(SC)cc23)OCO4)CN1C(=O)[C@@H](NC(=O)OC(C)(C)C)C(C)(C)C)C(=O)NS(=O)(=O)C1CC1,replicon,BMS,Huh7,<0.1 µM
O=C(Cc1ccc(Cl)c(Cl)c1)N/N=C/c1ccccc1OS(=O)(=O)c1ccc(C(F)(F)F)cc1,replicon,-,Huh7,<5 µM
O=C(Nc1ccc(C2SC(=Nc3cccnc3)N(Cc3cccc(F)c3)C2=O)cc1)[C@H]1CCCN1C(=O)OCc1ccccc1,replicon,-,Huh7,<0.1 µM
C=CC[C@](C)(NC(=O)[C@H]1C[C@@H](Oc2nc3ccoc3c3ccccc23)CN1C(=O)[C@@H](NC(=O)OC(C)(C)C)C(C)(C)C)C(=O)NS(=O)(=O)C1CC1,replicon,BMS,Huh7,<0.1 µM
CC[C@@H]1C[C@]1(NC(=O)[C@@H]1C[C@@H](Oc2cc(-c3ccccc3)nc3cc(OC)ccc23)CN1C(=O)[C@@H](NC(=O)OC(C)C)C(C)C)C(=O)NS(=O)(=O)C1CC1,replicon,1b,Huh7,<0.05 µM
O=C(Nc1ccc(C2SC(=Nc3ccc4c(c3)OCCO4)N(Cc3ccco3)C2=O)cc1)[C@H]1CCCN1C(=O)OCc1ccccc1,replicon,-,Huh7,<0.1 µM
Fc1ccccc1-c1nc2cc[n+](Cc3ccc(-c4ccc(C(F)(F)F)cc4C(F)(F)F)nn3)cc2[nH]1,luciferase,-,H77,0.0015 µM
CCCC(NC(=O)[C@@H]1C[C@@H](OC(=O)N2CCc3ccccc3C2)CN1C(=O)C(C)N1CCCCC1)C(=O)C(=O)NC1CC1,replicon,1b,-,>100 µM
COc1cccc(CC(=O)N/[N+](C)=C/c2cc(F)ccc2OS(=O)(=O)c2ccc(C(F)(F)F)cc2)c1,replicon,-,Huh7,>50 µM
CC(=O)N1c2cccc(O)c2NC2=C(C(=O)CC(C)(C)C2)C1c1ccc(C#N)cc1,luciferase / reporter gene / replicon,1b,-,57.23 µM
CC(C)(C)c1ccc(COc2ccccc2/C=N/NC(=O)Cc2cccnc2)cc1,replicon,-,Huh7,>50 µM
CC1(C)CC(=O)C2=C(C1)Nc1c(O)cccc1N(C(=O)NCC(=O)NCCCO)C2c1ccc(OCc2ccccc2)cc1Cl,luciferase / reporter gene / replicon,1b,-,>32 µM
CCOC(=O)C12CC1/C=C\CCCCC[C@H](N1CCCCC1)C(=O)N1C[C@H](Oc3cc(-c4ccccc4)nc4cc(OC)ccc34)C[C@H]1C(=O)N2,replicon,1b,-,>100 µM
C=CC[C@](C)(NC(=O)[C@H]1C[C@@H](Oc2cccc3nccc(Cl)c23)CN1C(=O)[C@@H](NC(=O)OC(C)(C)C)C(C)(C)C)C(=O)NS(=O)(=O)C1CC1,replicon,BMS,Huh7,<0.1 µM
CC(=O)N1c2cccc(O)c2NC2=C(C(=O)CC(C)(C)C2)C1c1ccc(Oc2ccccc2Cl)cc1Cl,luciferase / reporter gene / replicon,1b,-,9.43 µM
CCOc1nc(NCc2ccc(F)cc2)nc2ccc(-c3ccc(NC(=O)C4CC4)nc3)nc12,replicon,-,-,<0.1 µM
C=CC[C@](C)(NC(=O)[C@H]1C[C@@H](Oc2nc3c(c4ccccc24)OCC3)CN1C(=O)[C@@H](NC(=O)OC(C)(C)C)C(C)(C)C)C(=O)NS(=O)(=O)C1CC1,replicon,BMS,Huh7,<0.1 µM
C=C[C@@H]1C[C@]1(NC(=O)[C@@H]1C[C@@H](Oc2cc(-c3ccccc3)nc3cc(OC)ccc23)CN1C(=O)[C@@H](NC(=O)CC(C)(C)C)C(C)(C)C)C(=O)NS(=O)(=O)C1CC1,replicon,1b,Huh7,<0.05 µM
C=CC1CC1(NC(=O)[C@@H]1C[C@@H](Oc2cc(-c3ccccc3)nc3cc(OC)ccc23)CN1C(=O)[C@H](c1ccccc1)N1CCCCC1)C(=O)O,replicon,1b,-,<100 µM
C=C[C@@H]1C[C@]1(NC(=O)[C@@H]1C[C@@H](Cc2cc(OC)cc(-c3ccccn3)n2)CN1C(=O)[C@@H](NC(=O)OC(C)(C)C)C(C)(C)C)C(=O)NS(=O)(=O)C1CC1,replicon,BMS,Huh7,<0.1 µM
O=C(Cc1ccccc1)N/N=C/c1ccccc1OS(=O)(=O)c1ccccc1,replicon,-,Huh7,>50 µM
NS(=O)(=O)c1ccc(CNc2nc(NCC(F)(F)F)c3nc(-n4ccnc4)ccc3n2)cc1,replicon,-,-,<0.1 µM
C=C[C@@H]1C[C@]1(NC(=O)[C@@H]1C[C@@H](Oc2nccc3cc(C(=O)C(F)(F)F)ccc23)CN1C(=O)[C@@H](NC(=O)OC(C)(C)C)C(C)(C)C)C(=O)NS(=O)(=O)C1CC1,replicon,BMS,Huh7,0.1–1 µM
C=CC1CC1(NC(=O)[C@@H]1C[C@@H](Oc2cc(-c3ccccc3)nc3cc(OC)ccc23)CN1C(=O)[C@H](CC(C)C)N1CCCCC1)C(=O)NS(=O)(=O)C1CC1,replicon,1b,-,<100 µM
O=C(Cc1cc(F)c(F)cc1F)N/N=C/c1ccccc1OS(=O)(=O)c1ccc(C(F)(F)F)cc1,replicon,-,Huh7,<5 µM
CC(=O)Nc1ccc(-c2ccc3nc(N)nc(N4CCS(=O)(=O)CC4)c3n2)cc1,replicon,-,Huh7,<0.3 µM
CN(C)c1cccc2cccc(Nc3s[nH]c(=O)c3C#N)c12,replicon,-,Huh7,>50 µM
CC(C)(C)N=C1SC(c2ccc(NC(=O)[C@H]3CCC(=O)N3C(=O)OCc3ccccc3)cc2)C(=O)N1Cc1ccccn1,replicon,-,Huh7,0.1–1 µM
CC1(C)CC(=O)C2=C(C1)Nc1c(O)cccc1N(C(=O)CCC(=O)Nc1ccc(-n3cccc3)cc1)C2c1ccc(OCc2ccccc2)cc1Cl,luciferase / reporter gene / replicon,1b,-,0.47 µM
N#Cc1c(Nc2ccc(Cl)c(C(F)(F)F)c2)s[nH]c1=O,replicon,-,Huh7,1–10 µM
C=C[C@@H]1C[C@]1(NC(=O)[C@@H]1C[C@@H](Oc2cc(-c3ccccc3)nc3cc(OC)ccc23)CN1C(=O)[C@@H](NC(=O)OC(C)(C)C)C(C)(C)C)C(=O)NS(=O)(=O)c1ccc(C#N)cc1,replicon,1b,Huh7,<0.5 µM
CC(C)C(=O)N1c2cccc(O)c2NC2=C(C(=O)CC(C)(C)C2)C1c1cc(Cl)c(Oc2ccccc2Br)s1,luciferase / reporter gene / replicon,1b,-,1.81 µM
CC(C)Nc1nc(NCC(F)(F)F)nc2ccc(-c3ccc(F)cc3)nc12,replicon,-,-,<0.1 µM
C=C[C@@H]1C[C@]1(NC(=O)[C@@H]1C[C@@H](Oc2cc(-c3ccccc3)nc3cc(OC)ccc23)CN1C(=O)[C@@H](NC(=O)OC(C)(C)C)C(C)C)C(=O)NS(=O)(=O)CC1CC1,replicon,1b,Huh7,<0.5 µM
CCCC(NC(=O)[C@@H]1C[C@@H](OC(=O)N2CCc3ccccc3C2)CN1C(=O)C(C)N1CCCC1)C(=O)C(=O)NC1CC1,replicon,1b,-,<100 µM
CCC[C@H](NC(=O)[C@@H]1C[C@@H](Oc2nc(-c3ccccn3)nc3ccsc23)CN1C(=O)[C@@H](NC(=O)NC(C)(C)C)C(C)(C)C)C(=O)C(=O)NC1CC1,replicon,1b,-,<1 µM
NC(=O)c1ccc(CNc2nc(NCC(F)(F)F)c3nc(-c4ccc(F)cc4)ccc3n2)cc1,replicon,-,-,<0.1 µM
C=C[C@@H]1C[C@]1(NC(=O)[C@@H]1C[C@@H](Oc2nc3c(Cl)nccc3cc2OC)CN1C(=O)[C@@H](NC(=O)OC(C)(C)C)C(C)(C)C)C(=O)NS(=O)(=O)C1CC1,replicon,BMS,Huh7,0.1–1 µM

Repeating the final 6 entries:

{"smiles": "CC(C)Nc1nc(NCC(F)(F)F)nc2ccc(-c3ccc(F)cc3)nc12", "method": "replicon", "result": "<0.1 µM"}
{"smiles": "C=C[C@@H]1C[C@]1(NC(=O)[C@@H]1C[C@@H](Oc2cc(-c3ccccc3)nc3cc(OC)ccc23)CN1C(=O)[C@@H](NC(=O)OC(C)(C)C)C(C)C)C(=O)NS(=O)(=O)CC1CC1", "method": "replicon", "strain": "1b", "cells": "Huh7", "result": "<0.5 µM"}
{"smiles": "CCCC(NC(=O)[C@@H]1C[C@@H](OC(=O)N2CCc3ccccc3C2)CN1C(=O)C(C)N1CCCC1)C(=O)C(=O)NC1CC1", "method": "replicon", "strain": "1b", "result": "<100 µM"}
{"smiles": "CCC[C@H](NC(=O)[C@@H]1C[C@@H](Oc2nc(-c3ccccn3)nc3ccsc23)CN1C(=O)[C@@H](NC(=O)NC(C)(C)C)C(C)(C)C)C(=O)C(=O)NC1CC1", "method": "replicon", "strain": "1b", "result": "<1 µM"}
{"smiles": "NC(=O)c1ccc(CNc2nc(NCC(F)(F)F)c3nc(-c4ccc(F)cc4)ccc3n2)cc1", "method": "replicon", "result": "<0.1 µM"}
{"smiles": "C=C[C@@H]1C[C@]1(NC(=O)[C@@H]1C[C@@H](Oc2nc3c(Cl)nccc3cc2OC)CN1C(=O)[C@@H](NC(=O)OC(C)(C)C)C(C)(C)C)C(=O)NS(=O)(=O)C1CC1", "method": "replicon", "strain": "BMS", "cells": "Huh7", "result": "0.1–1 µM"}

a–b is a range or a potency band. Blank or dashed fields: not listed here. Rows are shuffled and stem from different studies.